Compound potency records, mixed from different reports. Data source: NIAID ChemDB in PubChem.

All rows: growth or infection tests; organism: HIV-1; read-out: EC50

ECn: concentration that inhibits the pathogen or its effect by n%.

SMILES | read by | setting | cell line | strain | changes | result
Cc1ccc(C)c(CSc2c(Cl)ccc[n+]2[O-])c1 | cytopathic effect | - | CEM | IIIB | - | 0.05 µg/mL
CCCCCCCCCCCC(=O)Oc1ccc(COP(=O)(OCc2ccc(OC(=O)CCCCCCCCCCC)cc2)OP(=O)(O)OC[C@@H]2C=C[C@H](n3cc(C)c(=O)[nH]c3=O)O2)cc1 | syncytia / microscopy | - | CEM | IIIB | - | 0.16 µM
COc1ccc(NC(=S)NN2C(=O)[C@@H]3[C@H](C2=O)[C@]2(C)C=C[C@@]3(C(C)C)CC2)cc1 | cytopathic effect / MTT | - | MT-4 | IIIB | - | >76 µM
COC(=O)C(C)NP(=O)(OC[C@@H]1C=C[C@H](n2cc(C)c(=O)[nH]c2=O)O1)Oc1ccc(Br)cc1 | p24 | - | PBMC | IIIB | - | <0.001 µM
CCc1nc([N+](=O)[O-])c(N2CCN(C(=O)CSC)CC2)n1Cc1ccccc1.COc1ccccc1 | syncytia | - | MT-4 | IIIB | - | >6.02 µg/mL
Cc1ccc(C)c(CS(=O)(=O)c2cccc[n+]2[O-])c1 | cytopathic effect | - | CEM | - | RT-K103N | 11 µg/mL
CC(C)C1=C2[C@H]3CC[C@@H]4[C@@]5(C)CC[C@H](OC(=O)[C@H]6C[C@@H](C(=O)O)C6(C)C)C(C)(C)[C@@H]5CC[C@@]4(C)[C@]3(C)CC[C@@]2([C@@H](O)CN(CCN(C)C)C(=O)c2nccs2)CC1=O | p24 / ELISA | - | MT-2 | 92HT599 | - | <1 µM
CC(C)CCC[C@@H](C)[C@H]1CC[C@H]2[C@@H]3CC[C@H]4C[C@H](NC(=O)C=C(c5cc(Cl)c(O)c(C(=O)O)c5)c5cc(Cl)c(O)c(C(=O)O)c5)CC[C@]4(C)[C@H]3CC[C@]12C | cytopathic effect / XTT | - | CEM + CEM-SS | RF | - | >26.6 µM
Cc1cn([C@H]2C=C[C@@H](CO)O2)c(=O)[nH]c1=O | syncytia / microscopy | - | CEM | IIIB | - | 0.86 µM
CCN1c2ncc(CCOc3cccc4c3CNC(=O)N4)cc2C(=O)Nc2c(C)ccnc21 | p24 | - | C8166 | - | RT-K103N Y181C | 0.01–0.05 µM
CC(C)C1=C2[C@H]3CC[C@@H]4[C@@]5(C)CC[C@H](OC(=O)[C@H]6C[C@@H](C(=O)O)C6(C)C)C(C)(C)[C@@H]5CC[C@@]4(C)[C@]3(C)CC[C@@]2(CCNCC2(N)CCC2)CC1=O | p24 / ELISA | - | MT-2 | 92HT599 | - | <1 µM
CCc1nc([N+](=O)[O-])c(N2CCN(C(=O)CCl)CC2)n1Cc1ccccc1 | syncytia | - | MT-4 | IIIB | - | >0.41 µg/mL
CC1(C)C(=O)CC[C@@]2(C)C1CC[C@]1(C)C2CCC2C3=C[C@](C)(CO)CC[C@]3(C)CC[C@]21C | - | - | MT-2 | NL4-3 | - | 10 µM
CCc1nc([N+](=O)[O-])c(N2CCN(C(=O)CSc3ccccc3)CC2)n1Cc1ccccc1 | syncytia | - | MT-4 | IIIB | - | >1.74 µg/mL
COc1c(Cl)cc(C(=CCC[C@H]2CC[C@@]3(C)[C@@H](CC[C@@H]4[C@@H]3CC[C@]3(C)[C@@H]([C@H](C)CCCC(C)C)CC[C@@H]43)C2)c2cc(Cl)c(OC)c(C(=O)O)c2)cc1C(=O)O | cytopathic effect / XTT | - | CEM + CEM-SS | RF | - | 13.9 µM
Cc1ccc(C)c(CS(=O)c2ccc(Cl)c[n+]2[O-])c1 | cytopathic effect | - | CEM | - | RT-Y181C | 9.4 µg/mL
COc1c(Cl)cc(C(=CCN[C@@H]2CC[C@@]3(C)[C@@H](CC[C@@H]4[C@@H]3CC[C@]3(C)[C@@H]([C@H](C)CCCC(C)C)CC[C@@H]43)C2)c2cc(Cl)c(OC)c(C(=O)O)c2)cc1C(=O)O | cytopathic effect / MTT | - | MT-4 | IIIB | - | >87 µM
CC(C)[C@]12C=C[C@](C)(CC1)[C@H]1C(=O)N(NC(=O)Nc3ccccc3)C(=O)[C@H]12 | cytopathic effect / MTT | - | MT-4 | IIIB | - | >100 µM
N#CC1=C[C@@H](n2cnc3c(=O)[nH]cnc32)O[C@H]1CO | - | - | PBMC | - | - | 50 µM
CCN1c2ncc(CCOc3cccc4c3CNC4=O)cc2C(=O)Nc2c(C)ccnc21 | p24 | - | C8166 | IIIB | - | <0.01 µM
CC1(C)C=C2C3CCC4[C@@]5(C)CC[C@H](O)C(C)(C)C5[C@H](O)C[C@@]4(C)[C@]3(C)CC[C@@]2(C)CC1 | - | - | MT-2 | NL4-3 | - | 64.36 µM
CCN1c2ncc(CCOc3cccc4c3CNC(=O)N4)cc2C(=O)N(C)c2cccnc21 | p24 | - | C8166 | IIIB | - | <0.01 µM
Cc1cn(-c2ccc(CNC[C@H](O)[C@@]34CC[C@]5(C)[C@H](CC[C@@H]6[C@@]7(C)CC[C@H](OC(=O)[C@H]8C[C@@H](C(=O)O)C8(C)C)C(C)(C)[C@@H]7CC[C@]65C)C3=C(C(C)C)C(=O)C4)cc2)cn1 | p24 / ELISA | - | MT-2 | 92HT599 | - | <1 µM
Cc1cn([C@H]2C[C@H](N=[N+]=[N-])[C@@H](CO)O2)c(=O)[nH]c1=O | MTT | - | MT-4 | IIIB | A17 | 0.01 µM
CCN1c2ncc(CCOc3cccc4c3CNC(=O)N4CC(=O)O)cc2C(=O)N(C)c2cccnc21 | p24 | - | C8166 | - | RT-K103N Y181C | >0.05 µM
COC(=O)[C@H](C)NP(=O)(OC[C@@H]1C=C[C@H](n2cc(C)c(=O)[nH]c2=O)O1)Oc1ccccc1Br | p24 | - | PBMC | IIIB | - | 0.002 µM
CC1=C[C@@H]2[C@@H]3C(=O)N(NC(=O)Nc4ccccc4)C(=O)[C@@H]3[C@H]1C[C@@H]2C(C)C | cytopathic effect / MTT | - | MT-4 | IIIB | - | 62 µM
N#C[C@@H]1[C@H](O)[C@@H](n2ccc(N)nc2=O)O[C@H]1CO | - | - | PBMC | - | - | >100 µM
CC1(C)C(=O)CC[C@@]2(C)C1CC[C@]1(C)C2CCC2C3=CC(C)(C)[C@H](O)C[C@]3(C)CC[C@]21C | - | - | MT-2 | NL4-3 | - | 20–100 µM
COC(=O)C(C)NP(=O)(OC[C@@H]1C=C[C@H](n2cc(C)c(=O)[nH]c2=O)O1)OC1C=CC=CC1(OC)OC | p24 | - | PBMC | IIIB | - | 0.006 µM
CC(C)c1nc(CN(C)C(=O)N[C@@H](C(=O)NN(Cc2ccccc2)C[C@H](O)[C@H](Cc2ccccc2)NC(=O)OCc2cncs2)C(C)C)co1 | cytopathic effect / MTT | - | MT-4 | IIIB | - | 0.11 µM
CCCCC(=O)Oc1ccc(COP(=O)(OCc2ccc(OC(=O)CCCC)cc2)OP(=O)(O)OC[C@@H]2C=C[C@H](n3cc(C)c(=O)[nH]c3=O)O2)cc1 | syncytia / microscopy | - | CEM | IIIB | - | 2 µM
Cc1nc2cc3nn2c(c1[C@H](OC(C)(C)C)C(=O)O)N1CCC(C)(CC1)O/C=C\COc1ccc(F)cc1-c1cccc-3c1 | - | 10% FBS | MT-2 | NL4-3 | - | 0.007 µM
CCc1nc([N+](=O)[O-])c(N2CCN(C(=O)CCC(N)=O)CC2)n1Cc1ccccc1 | syncytia | - | MT-4 | IIIB | - | >78.9 µg/mL
CC(C)C1=C2[C@H]3CC[C@@H]4[C@@]5(C)CC[C@H](OC(=O)[C@H]6C[C@@H](C(=O)O)C6(C)C)C(C)(C)[C@@H]5CC[C@@]4(C)[C@]3(C)CC[C@@]2(CC(=O)NCc2ccc(N3CCC(O)CC3)cc2)CC1=O | p24 / ELISA | - | MT-2 | 92HT599 | - | <1 µM
FC(F)(F)c1cccc(NC(=S)Nc2nc3ccccc3s2)c1 | MTT | - | MT-4 | IIIB | - | >5.8 µM
CC(C)[C@]12C=C[C@](C)(CC1)[C@H]1C(=O)N(NC(=O)NC3CCCCC3)C(=O)[C@H]12 | cytopathic effect / MTT | - | MT-4 | IIIB | - | >72 µM
CCN1c2ncc(CCOc3cccc4c3CNC4=O)cc2C(=O)N(C)c2cccnc21 | p24 | - | C8166 | - | RT-K103N Y181C | <0.01 µM
COC(=O)[C@H](C)NP(=O)(OC[C@@H]1C=C[C@H](n2cc(C)c(=O)[nH]c2=O)O1)Oc1ccc(Br)cc1Cl | p24 | - | PBMC | IIIB | - | 0.001 µM
CC(C)C1=C2[C@H]3CC[C@@H]4[C@@]5(C)CC[C@H](OC(=O)[C@H]6C[C@@H](C(=O)O)C6(C)C)C(C)(C)[C@@H]5CC[C@@]4(C)[C@]3(C)CC[C@@]2([C@@H](O)CNCc2cccc(Cl)c2)CC1=O | p24 / ELISA | - | MT-2 | 92HT599 | - | <1 µM
CC(C)[C@]12C=C[C@](C)(CC1)[C@H]1C(=O)N(NC(=S)NC3CCCCC3)C(=O)[C@H]12 | cytopathic effect / MTT | - | MT-4 | IIIB | - | >53 µM
N#CC1=C[C@@H](n2ccc(N)nc2=O)O[C@H]1CO | - | - | PBMC | - | - | >100 µM
CC(C)C1=C2[C@H]3CC[C@@H]4[C@@]5(C)CC[C@H](OC(=O)[C@H]6C[C@@H](C(=O)O)C6(C)C)C(C)(C)[C@@H]5CC[C@@]4(C)[C@]3(C)CC[C@@]2([C@@H](O)CNC(=O)C(C)(CCCCN)NC(=O)c2ccc(Cl)cc2)CC1=O | p24 / ELISA | - | MT-2 | 92HT599 | - | <1 µM
N#CC1=C[C@@H](n2cnc3c(=O)[nH]c(N)nc32)O[C@H]1CO | - | - | PBMC | - | - | 28 µM
COC(=O)[C@H](C)NP(=O)(OC[C@@H]1C=C[C@H](n2cc(C)c(=O)[nH]c2=O)O1)Oc1cc(Cl)ccc1Cl | p24 | - | PBMC | IIIB | - | 0.001 µM
N#C[C@@H]1[C@H](O)[C@@H](n2ccc(=O)[nH]c2=O)O[C@H]1CO | - | - | PBMC | - | - | >100 µM
Cc1ccc(C(C)S(=O)(=O)c2c(C)ccc[n+]2[O-])c(C)c1 | cytopathic effect | - | CEM | MN | - | 36 µg/mL
CC(C)CCC[C@@H](C)[C@H]1CC[C@H]2[C@@H]3CC[C@H]4C[C@@H](NC(=O)CC=C(c5cc(Cl)c(O)c(C(=O)O)c5)c5cc(Cl)c(O)c(C(=O)O)c5)CC[C@]4(C)[C@H]3CC[C@]12C | cytopathic effect / XTT | - | CEM + CEM-SS | RF | - | 22.6 µM
CC(c1ccccc1)N1C(=O)CS/C1=N\c1nc2ccccc2s1 | MTT | - | MT-4 | IIIB | - | >84 µM
CC(C)c1nc(CN(C)C(=O)N[C@@H](C(=O)NN(Cc2ccc(O)cc2)C[C@H](O)[C@H](Cc2ccccc2)NC(=O)OCc2cncs2)C(C)C)cs1 | cytopathic effect / MTT | - | MT-4 | IIIB | - | 0.04 µM
Cc1cc(C(C)(C)C)ccc1NC(=S)Nc1nc2ccccc2s1 | MTT | - | MT-4 | IIIB | - | >8.6 µM
Cc1nc2cc3nn2c(c1[C@H](OC(C)(C)C)C(=O)O)-c1ccc2c(c1Cl)N(C/C=C\CCc1cccc(c1)-c1cccc-3c1)CCO2 | - | 10% FBS | MT-2 | NL4-3 | - | 0.125 µM
N#CC1=C[C@@H](n2cnc3c(N)ncnc32)O[C@H]1CO | - | - | PBMC | - | - | 67.4 µM

Repeating the final 4 entries:

| SMILES | read by | setting | cell line | strain | changes | result |
|---|---|---|---|---|---|---|
| CC(C)c1nc(CN(C)C(=O)N[C@@H](C(=O)NN(Cc2ccc(O)cc2)C[C@H](O)[C@H](Cc2ccccc2)NC(=O)OCc2cncs2)C(C)C)cs1 | cytopathic effect / MTT | - | MT-4 | IIIB | - | 0.04 µM |
| Cc1cc(C(C)(C)C)ccc1NC(=S)Nc1nc2ccccc2s1 | MTT | - | MT-4 | IIIB | - | >8.6 µM |
| Cc1nc2cc3nn2c(c1[C@H](OC(C)(C)C)C(=O)O)-c1ccc2c(c1Cl)N(C/C=C\CCc1cccc(c1)-c1cccc-3c1)CCO2 | - | 10% FBS | MT-2 | NL4-3 | - | 0.125 µM |
| N#CC1=C[C@@H](n2cnc3c(N)ncnc32)O[C@H]1CO | - | - | PBMC | - | - | 67.4 µM |

a–b is a range or a potency band. Conditions beyond the fields shown may differ between rows. Blank or dashed fields: not listed here.